Experimental data as given in publication PMC6318325, “The conformational changes coupling ATP hydrolysis and translocation in a bacterial DnaB helicase” (Nature Communications, 2019).
For at least one entry, the source does not settle the construct or the ends of the probe. For part of these data: A weaker result is weaker than the reference pair of the same experiment. Protein sequences can lack the tags named with them. For part of these data: At least one verdict was read from the data and is not stated in words by the source.

What was measured:
[1] = target: T1, HpDnaB replicative helicase (Helicobacter pylori) (UniProt O25916); assay: solid-state NMR (31P, 13C); conditions: ADP, substoichiometric DNA binding, metal ion absent in the DNA-bound state; NMR: protein buffer 2.5 mM sodium phosphate pH 7.5, 130 mM NaCl, 278 K; recombinant protein; single-stranded DNA
T1 sequence (looked up, limits assumed): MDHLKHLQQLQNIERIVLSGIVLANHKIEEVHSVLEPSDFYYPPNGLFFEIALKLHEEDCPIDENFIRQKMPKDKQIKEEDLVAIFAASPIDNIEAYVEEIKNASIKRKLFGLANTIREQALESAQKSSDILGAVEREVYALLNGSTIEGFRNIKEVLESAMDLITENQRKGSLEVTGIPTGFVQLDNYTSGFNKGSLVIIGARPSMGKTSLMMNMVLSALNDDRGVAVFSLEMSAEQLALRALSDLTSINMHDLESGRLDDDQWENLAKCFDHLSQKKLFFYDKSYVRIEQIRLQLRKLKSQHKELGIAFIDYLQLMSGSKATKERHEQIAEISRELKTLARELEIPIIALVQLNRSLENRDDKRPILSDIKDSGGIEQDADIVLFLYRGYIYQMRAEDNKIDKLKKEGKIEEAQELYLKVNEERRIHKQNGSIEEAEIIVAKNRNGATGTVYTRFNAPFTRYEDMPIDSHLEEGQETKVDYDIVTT

[2] = target: T1, HpDnaB replicative helicase (Helicobacter pylori); assay: solid-state NMR (31P-31P); conditions: ATP added (ADP found bound in the complex), excess DnaB:ADP without DNA remains; NMR: protein buffer 2.5 mM sodium phosphate pH 7.5, 130 mM NaCl, 278 K; recombinant protein; single-stranded DNA
[3] = target: T1, HpDnaB replicative helicase (Helicobacter pylori); assay: fluorescence anisotropy; conditions: 0.5 mM ADP, 5 mM MgCl2, not saturated, Bmax fixed at 250, Hill fit h 0.5361; Anisotropy: 20 mM Hepes pH 7.5, 5 mM MgCl2, 50 mM potassium acetate, 5% glycerol, 0.2 mg/ml BSA, 0.5 mM nucleotide, 1 nM DNA, 0-8 uM DnaB (dodecamer); recombinant protein; label: 5'-FAM; single-stranded DNA

Sequence | binding result [1] | binding result [2] | Kd [3] [µM]
TTTTTTTTTTTTTTTTTTTT [(dT)20] | binds more weakly | binds | 
TTTTTTTTTTTTTTTTTTTT [5'-FAM-(dT)20] |  |  | 5.1
